In patent US20050186197A1, “Peptide inhibitors of beta lactamases” (published 2005):
Read-outs that look alike come from different tables or passages of the source.

Protein sequences, listed by entry. Tags and fused reporters are not part of them. Residues count along the entry.
UniProt P62593, 24-286 limits assumed: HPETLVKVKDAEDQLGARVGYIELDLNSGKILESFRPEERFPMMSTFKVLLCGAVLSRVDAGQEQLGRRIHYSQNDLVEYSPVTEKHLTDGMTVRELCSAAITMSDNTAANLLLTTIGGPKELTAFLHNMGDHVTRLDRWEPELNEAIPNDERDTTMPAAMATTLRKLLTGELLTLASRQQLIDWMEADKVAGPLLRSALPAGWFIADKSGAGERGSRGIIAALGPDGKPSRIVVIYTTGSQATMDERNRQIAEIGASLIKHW
UniProt P05364, 21-381 limits assumed: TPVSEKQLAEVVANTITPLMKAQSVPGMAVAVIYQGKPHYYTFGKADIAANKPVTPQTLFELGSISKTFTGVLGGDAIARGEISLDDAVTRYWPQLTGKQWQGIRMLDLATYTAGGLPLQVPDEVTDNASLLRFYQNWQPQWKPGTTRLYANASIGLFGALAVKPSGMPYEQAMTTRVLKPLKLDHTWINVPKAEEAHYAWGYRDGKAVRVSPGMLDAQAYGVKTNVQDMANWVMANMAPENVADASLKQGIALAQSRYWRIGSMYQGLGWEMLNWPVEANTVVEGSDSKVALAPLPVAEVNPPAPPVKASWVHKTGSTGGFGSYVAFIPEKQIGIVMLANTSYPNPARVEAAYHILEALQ
UniProt P52699, 19-246 limits assumed: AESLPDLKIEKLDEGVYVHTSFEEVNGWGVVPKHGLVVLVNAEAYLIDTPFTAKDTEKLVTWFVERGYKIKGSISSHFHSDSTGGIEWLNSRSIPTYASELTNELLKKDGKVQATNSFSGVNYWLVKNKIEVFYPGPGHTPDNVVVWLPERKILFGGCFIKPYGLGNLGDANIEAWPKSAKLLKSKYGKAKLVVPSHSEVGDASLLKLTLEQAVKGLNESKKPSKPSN

Assays:
TEM-1 β-lactamase [1] = biological target: T1, TEM-1 β-lactamase (Escherichia coli, UniProt P62593); test: β-lactamase inhibition assay, TEM-1; settings: for Ki: read-out: Ki for inhibition of TEM-1 β-lactamase
[2] = system: B. anthracis Bla1 β-lactamase; test: β-lactamase inhibition assay, Bla1; settings: for Ki for Bla1 lower than the Ki for inhibition of TEM-1 β-lactamase: Bla1 versus TEM-1; for Ki: read-out: Ki for inhibition of Bla1
[3] = biological target: E. cloacae P99 β-lactamase (Enterobacter cloacae, UniProt P05364); test: β-lactamase inhibition assay, P99; settings: for Ki: read-out: Ki for inhibition of P99
TEM-1 β-lactamase [4] = biological target: T1, TEM-1 β-lactamase; test: SPOT array binding of TEM-1 β-lactamase-HRP to cellulose-bound peptides; settings: probed with TEM-1 β-lactamase conjugated to HRP; compared with RRGDYG control peptide
TEM-1 β-lactamase [5] = biological target: T1, TEM-1 β-lactamase; test: Mode of inhibition (Km and Vmax, double reciprocal plots), TEM-1
P99 β-lactamase = P99 β-lactamase (Enterobacter cloacae, UniProt P05364); test: Mode of inhibition (Km and Vmax, double reciprocal plots), P99
Bla1 β-lactamase = test: Mode of inhibition (Km and Vmax, double reciprocal plots), Bla1
[6] = biological target: class B zinc-metallo-β-lactamase IMP-1 (Serratia marcescens, UniProt P52699); test: β-lactamase inhibition assay, IMP-1; settings: concentrations up to 400 μm

C[C@H](NC(=O)[C@H](CO)NC(=O)[C@@H](N)Cc1c[nH]cn1)C(=O)N[C@H]1CSSC[C@@H](C(=O)NCC(N)=O)NC(=O)[C@H](CC(=O)O)NC(=O)CNC(=O)[C@H](CCCNC(=N)N)NC(=O)[C@H](CCCNC(=N)N)NC(=O)[C@H]([C@@H](C)O)NC(=O)[C@H](CC(=O)O)NC(=O)[C@H](CO)NC1=O
Ki (TEM-1 β-lactamase [1]; disulfide-bonded version of the peptide): 3500 µM

LRRASLG-NH2
effect on TEM-1 β-lactamase activity (TEM-1 β-lactamase [1]; concentrations up to 4 mM): no effect

N=C(N)NCCC[C@H](NC(=O)[C@@H](N)CCCNC(=N)N)C(N)=O
effect on β-lactamase activity ([2]; Bla1, concentrations up to 2.0 mM): no effect
effect on β-lactamase activity ([3]; P99, concentrations up to 2.0 mM): no effect
effect on β-lactamase activity (TEM-1 β-lactamase [1]; TEM-1, concentrations up to 2.0 mM): no effect

C[C@H](N)C(=O)N[C@@H](C)C(=O)NCC(=O)N[C@@H](Cc1c[nH]cn1)C(=O)N[C@@H](Cc1ccc(O)cc1)C(=O)N[C@@H](Cc1ccc(O)cc1)C(N)=O
increase in Ki for Bla1 on replacement of the arginines with alanines ([2]; relative to RRGHYY): two-fold
increase in Ki for the P99 enzyme on replacement of the arginines with alanines ([3]; relative to RRGHYY): 3 fold
increase in Ki for inhibition of TEM-1 on substitution of the arginines with alanine (TEM-1 β-lactamase [1]; relative to RRGHYY): 3 fold

N=C(N)NCCC[C@H](N)C(=O)O
effect on β-lactamase activity (TEM-1 β-lactamase [1]; TEM-1, concentrations up to 2.5 mM): no effect

RRGHYG
binding signal on SPOT array (TEM-1 β-lactamase [4]): stronger binding signal

N=C(N)NCCC[C@H](NC(=O)[C@@H](N)CCCNC(=N)N)C(=O)NCC(=O)N[C@@H](Cc1c[nH]cn1)C(=O)N[C@@H](Cc1ccc(O)cc1)C(=O)N[C@@H](Cc1ccc(O)cc1)C(N)=O
inhibition pattern with respect to β-lactam substrates (TEM-1 β-lactamase [5]): competitive inhibition pattern
Vmax for cephalosporin C hydrolysis (TEM-1 β-lactamase [5]; 100 μM RRGHYY—NH2): 118 ± 12 µM/min
Vmax for cephalosporin C hydrolysis (TEM-1 β-lactamase [5]; 50 μm RRGHYY—NH2): 105±5 μm/min
Km (TEM-1 β-lactamase [5]; read-out: Km for cephalosporin C hydrolysis, 100 μM RRGHYY—NH2): 1180 µM
Km (TEM-1 β-lactamase [5]; read-out: Km for cephalosporin C hydrolysis, 50 μm RRGHYY—NH2): 771 µM
Ki for Bla1 lower than the Ki for inhibition of TEM-1 β-lactamase [2]: approximately 3 fold
Ki [2]: 42 µM
Ki [3]: 140 µM
inhibition pattern with respect to β-lactam substrates (P99 β-lactamase): competitive inhibition pattern
Vmax for cephalosporin C hydrolysis (P99 β-lactamase; 50 μM RRGHYY—NH2): 590 ± 64 µM/min
Vmax for cephalosporin C hydrolysis (P99 β-lactamase; 100 μm RRGHYY—NH2): 630 ± 47 µM/min
Km (P99 β-lactamase; read-out: Km for cephalosporin C hydrolysis, 50 μM RRGHYY—NH2): 981 µM
Km (P99 β-lactamase; read-out: Km for cephalosporin C hydrolysis, 100 μm RRGHYY—NH2): 1390 µM
inhibition pattern with respect to β-lactam substrates (Bla1 β-lactamase): competitive inhibition pattern
Vmax for PenV hydrolysis (Bla1 β-lactamase; 15 μm RRGHYY—NH2): 250±11 μm/min
Vmax for PenV hydrolysis (Bla1 β-lactamase; 30 μm RRGHYY—NH2): 243±21 μm/min
Km (Bla1 β-lactamase; read-out: Km for PenV hydrolysis, 15 μm RRGHYY—NH2): 450 µM
Km (Bla1 β-lactamase; read-out: Km for PenV hydrolysis, 30 μm RRGHYY—NH2): 609 µM
improvement in affinity relative to HSAYSDTRRGDYG-NH2 (TEM-1 β-lactamase [1]; TEM-1): approximately 2 fold
improvement in binding affinity relative to disulfide bonded HSACSDTRRGDCG-NH2 (TEM-1 β-lactamase [1]; TEM-1): 25 fold
Ki (TEM-1 β-lactamase [1]): 136 µM
inhibition of IMP-1 [6]: no inhibition

C[C@H](NC(=O)[C@H](CO)NC(=O)[C@@H](N)Cc1c[nH]cn1)C(=O)N[C@@H](Cc1ccc(O)cc1)C(=O)N[C@@H](CO)C(=O)N[C@@H](CC(=O)O)C(=O)N[C@H](C(=O)N[C@@H](CCCNC(=N)N)C(=O)N[C@@H](CCCNC(=N)N)C(=O)NCC(=O)N[C@@H](CC(=O)O)C(=O)N[C@@H](Cc1ccc(O)cc1)C(=O)NCC(N)=O)[C@@H](C)O
Ki for Bla1 lower than the Ki for inhibition of TEM-1 β-lactamase [2]: approximately 4 fold
Ki [2]: 70 µM
Ki [3]: 254 µM
improvement in binding affinity relative to disulfide bonded HSACSDTRRGDCG-NH2 (TEM-1 β-lactamase [1]; TEM-1): approximately 10 fold
Ki (TEM-1 β-lactamase [1]): 298 µM
